Article PMC7108845, “An Alphaherpesvirus Exploits Antimicrobial β-Defensins To Initiate Respiratory Tract Infection” (Journal of Virology, 2020)

These sequences were tested on EHV1.
Assay type: cell-based, equine herpesvirus type 1

| Sequence | subsequent EHV1 infection in EREC | susceptibility of EREC to EHV1 infection (number of plaques) |
| --- | --- | --- |
| MRAPYFLLLTLCLFCCQMSSGVGYLTGLGHRSDHYICARSGGTCHFSSCPLFTKIEGTCYGGKAKCCL (also: bicyclic or more (positions not given here)) [eBD1, chemically synthesized equine β-defensin, named according to its human homolog] | enhanced | more susceptible to EHV1 infection |
| MRIHFLLFALLFLFLMPVPGNGGIINMLQKSYCKIRKGRCALLGCLPKEEQIGSCSVSGRKCCRKKK (also: bicyclic or more (positions not given here)) [eBD3, chemically synthesized equine β-defensin, named according to its human homolog] | enhanced | more susceptible to EHV1 infection |
| MRILHFLLAFLIVFLLPVPGFTAGIETSFSCSQNGGFCISPKCLPGSKQIGTCILPGSKCCRKK (also: bicyclic or more (positions not given here)) [eBD2, chemically synthesized equine β-defensin, named according to its human homolog] | enhanced | more susceptible to EHV1 infection |
